Results of unrelated studies side by side (data: NIAID ChemDB).

Shared fields: growth or infection tests; organism: Hepatitis C virus; read by: replicon; read-out: EC50

ECn is the concentration giving n% inhibition of infection, replication or growth.

SMILES,setting,strain or isolate,cells,value
COc1c(C(C)(C)C)cc(-c2ccc[nH]c2=O)c2ncc(-c3ccc(NS(C)(=O)=O)cc3)cc12,40% human serum,GT 1a-H77,Huh7,0.016 µM
C=CC[C@](C)(NC(=O)[C@H]1C[C@@H](Oc2nccc3c(C(=O)c4cccs4)c(OCC)ccc23)CN1C(=O)[C@@H](NC(=O)OC(C)(C)C)C(C)(C)C)C(=O)NS(=O)(=O)C1CC1,-,BMS,Huh7,0.1–1 µM
C[C@@]1(O)[C@H](O)[C@@H](CO)O[C@H]1n1cnc2c(NN)ncnc21,-,-,Huh7,<25 µM
CNC(=O)c1c(-c2cccs2)oc2ccc(OC)cc12,-,-,Huh7,<30 µM
COc1cnccc1Nc1nc(-c2cc(Cl)ccc2F)nc2ncccc12,-,-,Huh7,0.56 µM
Nc1n[nH]c2ccc(Cn3c(C(=O)O)c(-c4ccc[nH]c4=O)c4c5occc5c(F)cc43)cc12,-,-,-,<0.5 µM
Nc1ncnc2c1c(-c1ccc(-c3cccc(-c4ccccn4)n3)cc1)cn2[C@H]1C[C@H](O)[C@@H](CO)O1,genotype 1b,1b,Huh7,16 µM
CCCCOC(=O)[C@H](C)NP(=O)(/C=C/[C@H]1O[C@@H](n2cnc3c(N)ncnc32)[C@@H](F)[C@@H]1O)N[C@@H](C)C(=O)OCCCC,-,-,-,<10 µM
COc1ccc(CNc2ccc3c(Nc4ccncc4)nc(-c4cc(Cl)ccc4F)nc3n2)cc1,-,-,Huh7,3.9 µM
COc1ccc2c(O[C@@H]3CC4C(=O)NC5(C(=O)O)CC5/C=C\CCCCCC(NC(=O)OC(C)(C)C)C(=O)N4C3)ccnc2c1,-,-,Huh7,1.2 µM
CN(N)c1ncnc2c1ncn2[C@@H]1O[C@H](CO)[C@@H](O)[C@@]1(C)O,-,-,Huh7,<25 µM
CCCCOc1ccc2oc(-c3ccccc3)c(C(=O)NC)c2c1,-,-,Huh7,<30 µM
C=CC[C@](C)(NC(=O)[C@H]1C[C@@H](Oc2nc(Br)c(OCOCC[Si](C)(C)C)c3ccccc23)CN1C(=O)[C@@H](NC(=O)OC(C)(C)C)C(C)(C)C)C(=O)NS(=O)(=O)C1CC1,-,BMS,Huh7,0.1–1 µM
Cc1cn(-c2cc3c(cc2F)c(=O)c(-c2noc(Cc4ccccc4)n2)cn3Cc2ccc(C(F)(F)F)cc2F)cn1,-,1b,-,>10 µM
C=C[C@@H]1C[C@]1(NC(=O)[C@@H]1C[C@@H](Oc2noc3c(OC)cccc23)CN1C(=O)[C@@H](NC(=O)OC(C)(C)C)C(C)(C)C)C(=O)NS(=O)(=O)C1CC1,-,BMS,Huh7,0.1–1 µM
O=C(O)c1c(-c2ccc[nH]c2=O)c2c3c(ccc2n1Cc1cc(F)ccc1F)CCCO3,-,-,-,<1 µM
Nc1ncnc2c1c(C#Cc1cccc(-c3ccccn3)n1)cn2[C@H]1C[C@H](O)[C@@H](CO)O1,genotype 1b,1b,Huh7,13 µM
Nc1ncnc2c1cnn2[C@@H]1O[C@H](/C=C/P(=O)(O)O)[C@@H](O)[C@H]1O,-,-,-,>100 µM
Nc1cc(Cn2c(C(=O)O)c(-c3ccc[nH]c3=O)c3c4ncsc4ccc32)ccn1,-,-,-,0.5–1.5 µM
Nc1ccn([C@@H]2O[C@H](/C=C/P(=O)(O)O)C[C@H]2O)c(=O)n1,-,-,-,>100 µM
Oc1cc(O)cc(-c2cc3ccc(O)cc3o2)c1,-,-,-,>100 µM
C=C[C@H]1C[C@@]1(NC(=O)[C@H]1C[C@@H](Oc2nccc3ccccc23)CN1C(=O)[C@@H](NC(=O)C(=O)CCOC)C(C)(C)C)C(=O)NS(=O)(=O)C1CC1,-,BMS,Huh7,1–10 µM
O=C(O)c1c(-c2ccc[nH]c2=O)c2c3occc3c(F)cc2n1Cc1cc(F)ccc1F,-,-,-,<0.5 µM
C=CC[C@](C)(NC(=O)[C@H]1C[C@@H](Oc2nc3c(c4ccccc24)CCC3)CN1C(=O)[C@@H](NC(=O)OC(C)(C)C)C(C)(C)C)C(=O)NS(=O)(=O)C1CC1,-,BMS,Huh7,<0.1 µM
O=C(O)c1c(-c2ccc[nH]c2=O)c2c3c(ccc2n1Cc1cc(F)ccc1F)OCCO3,-,-,-,<1 µM
COC(=O)c1ccc(N2CCN(S(=O)(=O)c3ccc(OC(F)(F)F)cc3)C(C(=O)NCc3ccc(OC(F)(F)F)cc3)C2)nn1,-,1b,-,0.14 µM
O=C(O)c1c(-c2ccc[nH]c2=O)c2c3ncccc3ccc2n1Cc1cc(F)ccc1F,-,-,-,1–10 µM
CNC(=O)c1c(-c2cccc(C(F)(F)F)c2)oc2ccc(OC)cc12,-,-,Huh7,<30 µM
CN1CCCN(c2nc3c(cc2F)c(=O)c(-c2noc(C(C)(C)c4ccccc4)n2)cn3Cc2ccc(C(F)(F)F)cc2)CC1,-,1b,-,>10 µM
CNC(=O)c1c(-c2ccc(F)cc2)oc2cc(-c3ccco3)c(OC(C)C)cc12,-,-,Huh7,<30 µM
CC1(C)Oc2cc3oc(-c4cc(O)cc(O)c4)cc3cc2CC1O,-,-,-,35.6 µM
C[C@@]1(O)[C@H](O)[C@@H](CO)O[C@H]1n1cnc2c(N(N)CCO)ncnc21,-,-,Huh7,<25 µM
C[C@@]1(F)[C@H](O)[C@@H](CO)O[C@@]1(CN)n1ccc(=O)[nH]c1=O,-,1b,Huh7,>89 µM
CC(=O)N1CCN(c2cc3c(cc2F)c(=O)c(-c2noc(Cc4ccccc4)n2)cn3Cc2ccc(Cl)cc2)CC1,-,1b,-,<2 µM
Nc1ccc2c(Nc3ccncc3F)nc(-c3cc(Cl)ccc3F)nc2n1,-,-,Huh7,>10 µM
COc1ccc2c(O[C@@H]3C[C@H]4C(=O)N[C@]5(C(=O)O)C[C@H]5/C=C\CCCCC[C@H](NC(=O)OC(C)(C)C)C(=O)N4C3)cc(-c3ccccc3)nc2c1,-,-,Huh7,0.077 µM
COc1ccc(CN(Cc2ccc(OC)cc2)c2ccc3c(Nc4ccncc4C(=O)O)nc(-c4cc(Cl)ccc4F)nc3n2)cc1,-,-,Huh7,>10 µM
CC(C)S(=O)(=O)NC(=O)c1c(-c2ccc[nH]c2=O)c2c3occc3c(F)cc2n1Cc1cc(C(N)=O)ccc1F,-,-,-,<0.5 µM
CN1CCN(c2cc3c(cc2F)c(=O)c(-c2noc(C(C)(C)c4ccccc4)n2)cn3Cc2ccc(C(F)(F)F)cc2F)CC1,-,1b,-,<2 µM
CC(C)(C)C(=O)OCOC(=O)c1c(-c2cccn(COC(=O)C(C)(C)C)c2=O)c2c3occc3c(F)cc2n1Cc1cc(=O)n(COC(=O)C(C)(C)C)cc1F,-,-,-,<0.5 µM
CN1CCN(c2cc3c(cc2F)c(=O)c(-c2noc(C(CCCC(N)=O)c4ccccc4)n2)cn3Cc2ccc(C(F)(F)F)cc2F)CC1,-,1b,-,>10 µM
CC[C@H]1C[C@@]1(NC(=O)[C@@H]1C[C@@H](Oc2nccc3cc(OC)ccc23)CN1C(=O)[C@@H](NC(=O)OC(C)(C)C)C(C)(C)C)C(=O)NS(=O)(=O)C(C)C,-,BMS,Huh7,<0.1 µM
CN1CCN(c2cc3c(cc2F)c(=O)c(-c2noc(C(CCCC(=O)O)c4ccccc4)n2)cn3Cc2ccc(Cl)cc2)CC1,-,1b,-,<10 µM
CNC(=O)c1c(-c2ccc(F)cc2)oc2cc(N3CCOCC3)c(OCc3nn(C)cc3Cl)cc12,-,-,Huh7,<1 µM
CN1CCN(c2cc3c(cc2F)c(=O)c(-c2noc(Cc4ccc(F)cc4F)n2)cn3Cc2ccc(Cl)cc2)CC1,-,1b,-,<10 µM
C=C[C@@H]1C[C@]1(NC(=O)[C@@H]1C[C@@H](Oc2nccc3cc(OC)ccc23)CN1C(=O)[C@@H](NC(C)=O)C(C)(C)C)C(=O)NS(=O)(=O)C1CC1,-,BMS,Huh7,0.1–1 µM
C[C@@]1(O)[C@H](O)[C@@H](/C=C/P(=O)(O)O)O[C@H]1n1nnc2c(N)ncnc21,-,-,-,>100 µM
C=CC[C@](C)(NC(=O)[C@H]1C[C@@H](Oc2nc3c(c4ccccc24)OCC3)CN1C(=O)[C@@H](NC(=O)OC(C)(C)C)C(C)(C)C)C(=O)NS(=O)(=O)C1CC1,-,BMS,Huh7,<0.1 µM
CCOc1ccccc1Nc1ncnc2c1ncn2[C@@H]1O[C@H](CO)[C@@H](O)[C@@]1(C)O,-,-,Huh7,25–100 µM
CNC(=O)c1c(-c2ccc(F)cc2)oc2cc(-c3c(C)noc3C)c(OCc3cscn3)cc12,-,-,Huh7,<1 µM
CCNC(=O)c1ccc(N2CCN(S(=O)(=O)c3ccc(OC(F)(F)F)cc3)C(C(=O)NCc3ccc(OC(F)(F)F)cc3)C2)nn1,-,1b,-,0.007 µM
CNC(=O)c1cnccc1Nc1nc(-c2cc(Cl)ccc2F)nc2nc(NCCOC)ccc12,-,-,Huh7,>10 µM
CCCCOC(=O)[C@H](C)NP(=O)(/C=C/[C@@]1(N=[N+]=[N-])O[C@@H](n2ccc(=O)[nH]c2=O)[C@H](O)[C@@H]1O)N[C@@H](C)C(=O)OCCCC,-,-,-,10–100 µM
O=C(NS(=O)(=O)C1CC1)c1c(-c2ccc[nH]c2=O)c2c3occc3c(F)cc2n1Cc1cc(F)ccc1F,-,-,-,<0.5 µM

For reference, 7 entries again:

SMILES	setting	strain or isolate	cells	value
Cc1cn(-c2cc3c(cc2F)c(=O)c(-c2noc(Cc4ccccc4)n2)cn3Cc2ccc(C(F)(F)F)cc2F)cn1	-	1b	-	>10 µM
CCCCOC(=O)[C@H](C)NP(=O)(/C=C/[C@H]1O[C@@H](n2cnc3c(N)ncnc32)[C@@H](F)[C@@H]1O)N[C@@H](C)C(=O)OCCCC	-	-	-	<10 µM
C=CC[C@](C)(NC(=O)[C@H]1C[C@@H](Oc2nc(Br)c(OCOCC[Si](C)(C)C)c3ccccc23)CN1C(=O)[C@@H](NC(=O)OC(C)(C)C)C(C)(C)C)C(=O)NS(=O)(=O)C1CC1	-	BMS	Huh7	0.1–1 µM
COc1ccc(CN(Cc2ccc(OC)cc2)c2ccc3c(Nc4ccncc4C(=O)O)nc(-c4cc(Cl)ccc4F)nc3n2)cc1	-	-	Huh7	>10 µM
COc1ccc2c(O[C@@H]3C[C@H]4C(=O)N[C@]5(C(=O)O)C[C@H]5/C=C\CCCCC[C@H](NC(=O)OC(C)(C)C)C(=O)N4C3)cc(-c3ccccc3)nc2c1	-	-	Huh7	0.077 µM
C=C[C@@H]1C[C@]1(NC(=O)[C@@H]1C[C@@H](Oc2noc3c(OC)cccc23)CN1C(=O)[C@@H](NC(=O)OC(C)(C)C)C(C)(C)C)C(=O)NS(=O)(=O)C1CC1	-	BMS	Huh7	0.1–1 µM
CCOc1ccccc1Nc1ncnc2c1ncn2[C@@H]1O[C@H](CO)[C@@H](O)[C@@]1(C)O	-	-	Huh7	25–100 µM

An empty or dashed field is not shown. Conditions beyond the fields shown may differ between rows. Two numbers with a dash give a range or band.